Source: PubChem BioAssay AID1259414 (Drosophila RNAi Screening Center, 2018)

- Purpose: 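Fly genes that alter Wolbachia amount inside host cells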 (primary screen)
- Cell system: Drosophila JW18 cells infected with Wolbachia
- Reagent: long dsRNA against Drosophila genes, 0.25 µg dsRNA per well of a 384-well plate
- Time to read-out: 5 days
- Treatment: cells persistently infected with Wolbachia before knock-down; no added drug
- Read-out: 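Automated imaging of bacterial rRNA staining divided by host cell count, reported as plate-normalised robust z-score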
- Reading the numbers: Wolbachia per cell robust z: higher = more Wolbachia per host cell than the plate typical
- Hit rule: 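Hit when robust z is 1.5 or more, or -1.5 or less, in at least two of three replicates; excludes dsRNAs with several or no targets, genes not expressed in JW18 and well A1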
The deposit covers about 24,000 reagents; below is an unselected part of those with a known target gene and a result. In the full data, about 1,210 (5%) were called active. 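Inactive calls also include excluded dsRNAs with several or no targets, genes unexpressed in JW18, and well A1, regardless of score.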

mRpL35 [DRSC14586] showed Wolbachia per cell robust z, rep 1 = 0.797; Wolbachia per cell robust z, rep 2 = 0.338; Wolbachia per cell robust z, rep 3 = 1.07; inactive. After knock-down of Adk2 [DRSC09827], the screen gave Wolbachia per cell robust z, rep 1 = 0.461; Wolbachia per cell robust z, rep 2 = 0.0835; Wolbachia per cell robust z, rep 3 = 0.314; inactive. With knock-down of CG1231 [DRSC08267] the results were Wolbachia per cell robust z, rep 1 = 0.256; Wolbachia per cell robust z, rep 2 = -1; Wolbachia per cell robust z, rep 3 = -2.13; inactive. After knock-down of CG1231 [DRSC27231] the results were Wolbachia per cell robust z, rep 1 = -0.252; Wolbachia per cell robust z, rep 2 = -1.05; Wolbachia per cell robust z, rep 3 = -1.66; inactive. Tektin-A [DRSC01921] gave Wolbachia per cell robust z, rep 1 = -0.469; Wolbachia per cell robust z, rep 2 = -0.344; Wolbachia per cell robust z, rep 3 = -1.17; inactive. Knock-down of CG7130 [DRSC11797] came out at: Wolbachia per cell robust z, rep 1 = 0.564; Wolbachia per cell robust z, rep 2 = -0.00158; Wolbachia per cell robust z, rep 3 = -1.05; inactive.

CheB93a [DRSC15044] showed Wolbachia per cell robust z, rep 1 = -2.89; Wolbachia per cell robust z, rep 2 = 0.886; Wolbachia per cell robust z, rep 3 = 1.27; inactive. RnrS [DRSC07533] scored Wolbachia per cell robust z, rep 1 = 2.42; Wolbachia per cell robust z, rep 2 = 2.99; Wolbachia per cell robust z, rep 3 = 5.05; active. With knock-down of RnrS [DRSC23541], the record shows Wolbachia per cell robust z, rep 1 = 4.33; Wolbachia per cell robust z, rep 2 = 3.72; Wolbachia per cell robust z, rep 3 = 11.9; active. With knock-down of CG30339 [DRSC05168], the screen gave Wolbachia per cell robust z, rep 1 = -3.54; Wolbachia per cell robust z, rep 2 = -2.35; Wolbachia per cell robust z, rep 3 = -6.76; active. With knock-down of Cpsf6 [DRSC10781], the screen gave Wolbachia per cell robust z, rep 1 = 1.31; Wolbachia per cell robust z, rep 2 = -1.24; Wolbachia per cell robust z, rep 3 = -0.161; inactive. With knock-down of gzl [DRSC12517], the screen gave Wolbachia per cell robust z, rep 1 = 1.12; Wolbachia per cell robust z, rep 2 = 0.878; Wolbachia per cell robust z, rep 3 = -0.433; inactive.

After knock-down of gzl [DRSC27120], the record shows Wolbachia per cell robust z, rep 1 = 0.396; Wolbachia per cell robust z, rep 2 = -0.377; Wolbachia per cell robust z, rep 3 = -4.95; inactive. After knock-down of DnaJ-1 [DRSC11145] the results were Wolbachia per cell robust z, rep 1 = 1.32; Wolbachia per cell robust z, rep 2 = -0.187; Wolbachia per cell robust z, rep 3 = 1.03; inactive. Knock-down of DnaJ-1 [DRSC40732] came out at: Wolbachia per cell robust z, rep 1 = 0.994; Wolbachia per cell robust z, rep 2 = 0.644; Wolbachia per cell robust z, rep 3 = 0.302; inactive. CG14297 [DRSC14776] showed Wolbachia per cell robust z, rep 1 = -0.521; Wolbachia per cell robust z, rep 2 = -0.0531; Wolbachia per cell robust z, rep 3 = -0.171; inactive. Depletion of Kap-alpha1 [DRSC11356] resulted in: Wolbachia per cell robust z, rep 1 = 0.596; Wolbachia per cell robust z, rep 2 = 0.134; Wolbachia per cell robust z, rep 3 = 0.489; inactive. After knock-down of CG14011 [DRSC02343], the screen gave Wolbachia per cell robust z, rep 1 = 0.617; Wolbachia per cell robust z, rep 2 = 0.719; Wolbachia per cell robust z, rep 3 = 0.379; inactive.

Silencing of CG14011 [DRSC27954] gave: Wolbachia per cell robust z, rep 1 = 0.611; Wolbachia per cell robust z, rep 2 = -0.974; Wolbachia per cell robust z, rep 3 = 0.649; inactive. Depletion of Tsp42Ek [DRSC06187] came out at: Wolbachia per cell robust z, rep 1 = 0.726; Wolbachia per cell robust z, rep 2 = 0.781; Wolbachia per cell robust z, rep 3 = -7.35; inactive. After knock-down of CG31677 [DRSC22023], the record shows Wolbachia per cell robust z, rep 1 = -0.397; Wolbachia per cell robust z, rep 2 = -0.317; Wolbachia per cell robust z, rep 3 = -1.59; inactive. Against CG15254 [DRSC01870], the values are Wolbachia per cell robust z, rep 1 = 1.04; Wolbachia per cell robust z, rep 2 = 0.0457; Wolbachia per cell robust z, rep 3 = 0.163; inactive. CG15254 [DRSC21765] showed Wolbachia per cell robust z, rep 1 = -0.172; Wolbachia per cell robust z, rep 2 = -0.524; Wolbachia per cell robust z, rep 3 = 0.714; inactive. For CG15254 [DRSC29568] the deposit lists Wolbachia per cell robust z, rep 1 = 0.874; Wolbachia per cell robust z, rep 2 = 0.455; Wolbachia per cell robust z, rep 3 = 0.918; inactive.

Individual results from the entries so far:
Result of CG14011 [DRSC27954] in “activity call”: inactive
For “Wolbachia per cell robust z, rep 3”, CG1231 [DRSC08267] shows -2.13
